According to patent US20150376654A1 (priority 2011, published 2015):
Like-named read-outs stand apart in the source and are kept apart here.

System: C. autoethanogenum DSM23693 wild-type (WT), parental
Description: To investigate whether overexpression of GroESL enhances ethanol tolerance of C. autoethanogenum DSM23693, both wild-type (WT), i.e. parental microorganism and transformed strain carrying plasmid pMTL85246-GroESL were challenged with different concentrations of ethanol (FIG. 8).
Growth experiments in triplicates were carried out in 50 ml PETC media (Table 1) in serum bottles sealed with rubber stoppers and 30 psi steel mill gas (collected from New Zealand Steel site in Glenbrook, NZ; composition: 44% CO, 32% N2, 22% CO2, 2% H2) in the headspace as sole energy and carbon source. […] All cultures were inoculated to the same optical density using the same pre-culture for either wild-type (parental) or transformed strain. Changes in biomass were measured spectrophotometrically at 600 nm until growth ceased. The maximum biomass of each culture was compared with the unchallenged culture.

CCO [ethanol]
Ethanol produced (all cultures of the wild-type in which ethanol was added): less than 0.14 g/L
Total ethanol after 40 h (ethanol at inoculation 0.09 g/L (no ethanol added)): 0.81 g/L
Ethanol produced (ethanol at inoculation 0.09 g/L (no ethanol added), 40 hours of growth): 0.72 g/L
Total ethanol after 40 h (ethanol at inoculation 14.58 g/L): 14.59 g/L
Ethanol produced (ethanol at inoculation 14.58 g/L, 40 hours of growth): 0.01 g/L
Total ethanol after 40 h (ethanol at inoculation 28.19 g/L): 28.17 g/L
Ethanol produced (ethanol at inoculation 28.19 g/L, 40 hours of growth): -0.02 g/L
Total ethanol after 40 h (ethanol at inoculation 44.89 g/L): 44.93 g/L
Ethanol produced (ethanol at inoculation 44.89 g/L (added around 45 g/L), 40 hours of growth): 0.04 g/L
Total ethanol after 40 h (ethanol at inoculation 55.19 g/L): 55.33 g/L
Ethanol produced (ethanol at inoculation 55.19 g/L (added around 60 g/L), 40 hours of growth): 0.14 g/L
